The source of these data is patent US20090299044A1.

T1: human Kv1.1 channel (human), Q09470
T1 chain: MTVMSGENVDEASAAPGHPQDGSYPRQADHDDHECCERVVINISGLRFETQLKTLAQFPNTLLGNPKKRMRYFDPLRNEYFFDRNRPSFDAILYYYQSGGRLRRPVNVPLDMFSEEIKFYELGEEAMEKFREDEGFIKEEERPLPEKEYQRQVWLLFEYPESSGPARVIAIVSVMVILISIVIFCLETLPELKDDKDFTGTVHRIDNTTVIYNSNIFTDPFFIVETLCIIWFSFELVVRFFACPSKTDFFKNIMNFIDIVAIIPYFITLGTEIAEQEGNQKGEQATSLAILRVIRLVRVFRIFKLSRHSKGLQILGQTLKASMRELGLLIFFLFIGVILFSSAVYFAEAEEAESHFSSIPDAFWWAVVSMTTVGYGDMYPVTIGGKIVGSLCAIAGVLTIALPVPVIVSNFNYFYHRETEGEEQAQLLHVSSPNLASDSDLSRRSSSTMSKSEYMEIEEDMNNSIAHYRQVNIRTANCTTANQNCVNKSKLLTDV

The target in the first test is T1, human Kv1.1 channel (human), Q09470. The experiment in a line: cell-based or functional assay.
Details: not given
Consider GVIINVKCKISRQCLEPCKKAGMRFGACMNGKCHCTPK (modifications not checked) [OSK1 Alanine Analog K27A], for which the IC50, Kv1.1 (IonWorks electrophysiology) is greater than 3000 pM.
On to GVIINVKCKISRQCLEPCKKAGMRFGKCMAGKCHCTPK (modifications not checked) [OSK1 Alanine Analog N30A], for which the IC50, Kv1.1 (IonWorks electrophysiology) was greater than 3000 pM.
On the same count and under the same terms, the value for GVIINVKCKISRQCLEPCKKAAMRFGKCMNGKCHCTPK (modifications not checked) [OSK1 Alanine Analog G22A] was greater than 3000 pM.

Another test deals with human Kv1.3 voltage-gated potassium channel (human), P22001. The experiment in a line: cell-based or functional assay.
Details: not given
GVIINVKCKISAQCLEPCKKAGMRFGKCMNGKCHCTPK (modifications not checked) [OSK1 analogue R12A] came in with a Kv1.3 Selectivity (=Kv1.1/Kv.3 IC50) of 17.
As for GVIINVKCKISRQCLEPCKKAGMRFGKCMNGKCECTPK (modifications not checked) [OSK1 analogue H34E], the Kv1.3 Selectivity (=Kv1.1/Kv.3 IC50) is 30.
For the molecule GVIINVKCKISRQCLEPCKKAGMRFGKCANGKCHCTPK (modifications not checked) [OSK1 analogue M29A], the Kv1.3 Selectivity (=Kv1.1/Kv.3 IC50) was 105.
In turn, GVIINVKCKISRQCLEPCKKAGMRFGKCRNGKCHCTPK (modifications not checked) [OSK1 analogue M29R] showed a Kv1.3 Selectivity (=Kv1.1/Kv.3 IC50) of 30.
GVIINVKCKISRQCEEPCKKAGMRFGKCMNGKCHCTPK (modifications not checked) [OSK1 analogue L15E] had a Kv1.3 Selectivity (=Kv1.1/Kv.3 IC50) of 342.
On the same count and under the same terms, to GVIINVKCKIRRQCLEPCKKAGMRFGKCMNGKCHCTPK (modifications not checked) [OSK1 analogue S11R] belongs 228.
The same measure, in the same setting: the value for GVIINVKCKISRQCLEPCKKAGMRFGKCMNGKCHCTEK (modifications not checked) [OSK1 analogue P37E] was 65.
Still for that read-out and setting: to GVIINVKCKISRQCLEPCKKAGMRFGKCMAGKCHCTPK (modifications not checked) [OSK1 analogue N30A] belongs 14; to GVIINVKCKISRQCLEPCKKAGMRFGKCMNGKCHCEPK (modifications not checked) [OSK1 analogue T36E], 44.
GVIINVKCKISRQCLEPCKKAGMRFGKCMNGKCACTPK (modifications not checked) [OSK1 analogue H34A]: the Kv1.3 Selectivity (=Kv1.1/Kv.3 IC50) is 797.
As for GVIINVKCKISRQCLEPCKKAGMRFGACMNGKCHCTPK (modifications not checked) [OSK1 analogue K27A], the Kv1.3 Selectivity (=Kv1.1/Kv.3 IC50) is 35.

In a further test the target is human Kv1.3 channel (human), P22001. Nature of the test: cell-based or functional assay.
Details: not given
Regarding GVIINVKCKISRQCLEPCKKAGMAFGKCMNGKCHCTPK (modifications not checked) [OSK1 Alanine Analog R24A], the IC50, Kv1.3 (IonWorks electrophysiology) was greater than 3000 pM.
Molecule GVIIEVKCKISRQCLEPCKKAGMRFGKCMNGKCHCTPK (modifications not checked) [OSK1 Glutamic Acid Analog N5E] returned an IC50, WB/IL-2 of 100 pM.
For the molecule GVIINVKCKASRQCLEPCKKAGMRFGKCMNGKCHCTPK (modifications not checked) [OSK1 Alanine Analog I10A], the IC50, WB/IL-2 is 50 pM.
For the molecule GVIINVKCKISRQCLEPCKKAGMRFEKCMNGKCHCTPK (modifications not checked) [OSK1 Glutamic Acid Analog G26E], the IC50, WB/IFNg came to 100000 pM and the IC50, WB/IL-2 amounted to 100000 pM.
The molecule GVIINVKCKISRQCLEPCKKAGMRFGKCRNGKCHCTPK (modifications not checked) [OSK1 Arginine Analog M29R] yielded an IC50, Kv1.3 (IonWorks electrophysiology) of 200 pM.
The molecule GVIINVKCKASRQCLEPCKKAGMRFGKCMNGKCHCTPK (modifications not checked) [OSK1 analog Ala-10 (SEQ ID No: 1408)] registered an Average IC50, thapsigargin-induced IL-2 in 50% human whole blood of 50 pM.
Take GVIINVKCKISRQCLEPCKKRGMRFGKCMNGKCHCTPK (modifications not checked) [OSK1 Arginine Analog A21R]: the IC50, WB/IL-2 is 90 pM.
Turning to GVIINVKCKISRQCLEPCKKAGMRFRKCMNGKCHCTPK (modifications not checked) [OSK1 Arginine Analog G26R], the IC50, WB/IFNg was determined as 100000 pM.
GVIINVKCKISRQCLEPCKKAAMRFGKCMNGKCHCTPK (modifications not checked) [OSK1 Alanine Analog G22A] displayed an IC50, Kv1.3 (IonWorks electrophysiology) greater than 3000 pM.
For the molecule GVIINVKCKISRQCLEPCKKAGMRFGKCMNGKCHCTPR (modifications not checked) [OSK1 Arginine Analog K38R], the IC50, WB/IFNg turned out to be 40 pM.
Molecule GVIINVKCKIARQCLEPCKKAGMRFGKCMNGKCHCTPK (modifications not checked) [OSK1 Alanine Analog S11A] returned an IC50, WB/IL-2 of 90 pM.
Consider GVIINVKCKISRQCLEPCKKAGMRFGKCMNGKCHCRPK (modifications not checked) [OSK1 Arginine Analog T36R], for which the IC50, WB/IFNg amounted to 10000 pM.
On to GVIINVKCKISEQCLEPCKKAGMRFGKCMNGKCHCTPK (modifications not checked) [OSK1 Glutamic Acid Analog R12E], for which the IC50, WB/IFNg was 2000 pM.

Another test concerns the target T1, human Kv1.1 channel (human), Q09470. The experiment in a line: whole cell patch clamp; WCPC. To be noted: chains peptide; modification not given.
As to GVIINVKCKISAQCLEPCKKAGMRFGKCMNGKCHCTPK [OSK1[Ala-12]], the IC50 is 440 pM.

The next test concerns the target human Kv1.3 channel (human), P22001. The experiment in a line: whole cell patch clamp; WCPC. To be noted: chains peptide; modification not given.
In turn, GVIINVKCKISAQCLEPCKKAGMRFGKCMNGKCHCTPK [OSK1[Ala-12]] displayed an IC50 of 25 pM.

The target is the same in another test. The experiment in a line: whole cell patch clamp; WCPC, IC50 Transit. Conditions: chains peptide; modification not given.
Molecule GVIINVKCKISAQCLEPCKKAGMRFGKCMNGKCHCTPK [OSK1[Ala-12]] yielded a half-inhibitory concentration (IC50) of 25 pM.
